# Reference: article PMC7242495
# Test system: CadR (Pseudomonas aeruginosa)
# Assay: EMSA
# Conditions: Zn added, 250 nM CadR, EMSA: 10 mM Tris pH 8.0, 40 mM KCl, 10 mM MgCl2, 1 mM DTT, 5% glycerol, 25 ng DNA, +/- Zn or EDTA, 30 min room temperature, gel at 4 C, recombinant protein, residues 1-156, probe letters rebuilt from the primers and the genome
sequence,measurement,value
CCATGATCATGTCCGTGACCGTGACCGTGACAGCAAGTGTCGGCGTGTTCGTGGCTCATGGAAACAATTCCCGTTTGACGTGTTGGGTGCGATTGCACACCCTGTAGCAACTACAGAGTCAAGCGGTACTGCCAATTCGGGTAGCCGCGTCGGCGATTGGAGGAGGGTTGGCATGAAGATCGGTGAGCTGGCGAAGAGAACCGGTT (double strand) [pcadA WT promoter (EMSA)],binding result,binds

# Construct, isoform or probe ends are uncertain for at least one entry. At least one verdict rests on a figure or table, not on a statement of the authors.
